One purity is given for all peptides; the source may state it once.
Experiment: general procedure: Fmoc solid-phase peptide synthesis; Fmoc-Lys(Boc) Wang resin (0.44 mmol/g); HBTU/HOBt, HATU/HOAt or PyOxim with DIPEA
Settings: whole synthesis, 214 nm

Final HPLC purity, > 95%:
Ac-Glu-Met-Arg-Leu-Ser-Lys(Ac)-Phe-Phe-Arg-Asp-Phe-Ile-Leu-Gln-Arg-Lys(Ac)-Lys(Ac)-OH
Ac-Glu-Met-Arg-Leu-Ser-Lys-Phe-Phe-Arg-Asp-Phe-Ile-Leu-Gln-Arg-Lys-Lys-OH
H-AMALSKFFRDFILQRKK-OH
H-Glu-Met-Arg-Leu-Ser-Lys-Phe-Phe-Arg-Asp-Phe-Ile-Leu-Gln-Arg-Lys-Lys-OH
H-Tyr(SO3H)-Met-Arg-Leu-Ser-Lys-Phe-Phe-Arg-Asp-Phe-Ile-Leu-Gln-Arg-Lys-Lys-OH
H-hβGlu-Met-Arg-Leu-Ser-Lys-Phe-Phe-Arg-Asp-Phe-Ile-Leu-Gln-Arg-Lys-Lys-OH
